Like-named read-outs stand apart in the source and are kept apart here.
Experiments:
HT29 [1] = conditions: 5 minute exposure
A375 [2] = conditions: 5 minute exposure
HT29 [3] = assay: MTT metabolic activity after 24 hours exposure; conditions: 24-hour incubation, 16-18 hours recovery, concentration as Roridin A
[4] = system: intimal smooth muscle cells; assay: Intimal smooth muscle proliferation in traumatized and treated porcine arteries; conditions: control treatments; 5 weeks after trauma; scored on a scale from 1+ (minimal) to 4+ (maximal)
HT29 [5] = assay: MTT metabolic activity 48 hours after 5 minute exposure; conditions: 48 hours recovery, conjugates: at the lower doses
A375 [6] = assay: as above; conditions: 48 hours recovery, conjugates: at the lower doses
BO54 = assay: as above; conditions: 48 hours recovery, conjugates: at the lower doses
[7] = system: BO54 arterial smooth muscle cells; conditions: 5 minute exposure
[8] = short-term (4 hour 3H-leucine directly after treatment)

Roridin A
protein synthesis (HT29 [1]; long-term (16-18 hours recovery period)): still manifest after the 16-18 hours recovery period
protein synthesis (HT29 [1]; [8]): dose-response inhibition of cellular protein synthesis
protein synthesis (A375 [2]; long-term (16-18 hour recovery period)): manifest even after a 16-18 hour recovery period
protein synthesis (A375 [2]; [8]): non-specifically inhibitory to test cells
concentration at which inhibitory effects on metabolic activity were observed (HT29 [3]): > 10 ng/mL
INTIMAL SMC HYPERTROPHY* ave. (range) [4]: 4 (4)
metabolic activity (MTT) (HT29 [5]): non-specifically inhibitory to target and non-target cell types
metabolic activity (MTT) (A375 [6]): non-specifically inhibitory to target and non-target cell types
metabolic activity (MTT) (BO54): non-specifically inhibitory to target and non-target cell types
protein synthesis ([7]; long-term, 50ng/ml): 98 % of control
protein synthesis ([7]; long-term, 100ng/ml): 46 % of control
protein synthesis ([7]; long-term, 200ng/ml): 27 % of control
protein synthesis ([7]; short-term, 50ng/ml): 90 % of control
protein synthesis ([7]; short-term, 100ng/ml): 66 % of control
protein synthesis ([7]; short-term, 200ng/ml): 60 % of control
